Data from publication PMC13098282.
The exact form of at least one protein or probe is not confirmed. A negative result means that nothing was seen under these conditions. Where a protein sequence is shown, tags need not be part of it.

Molecular target: T1, Crp2 (Mycobacterium smegmatis) (UniProt A0R5H1)
T1 sequence (looked up, limits assumed): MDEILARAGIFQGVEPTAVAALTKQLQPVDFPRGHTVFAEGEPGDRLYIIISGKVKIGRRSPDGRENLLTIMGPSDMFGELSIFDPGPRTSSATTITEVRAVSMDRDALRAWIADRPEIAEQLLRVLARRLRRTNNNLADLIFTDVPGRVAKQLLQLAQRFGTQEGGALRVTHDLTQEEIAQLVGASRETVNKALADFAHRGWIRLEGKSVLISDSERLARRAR
Test: EMSA
Conditions: 20 mM HEPES pH 7.6, 1 mM EDTA, 10 mM (NH4)2SO4, 1 mM DTT, 0.2% Tween 20, 30 mM KCl, 310 fmol DNA in 20 uL, 0/25/75 ng protein (Fig S7: 1 or 3 uM), 15 min, recombinant protein, label: DIG (kit, stated as 5' end), probe letters rebuilt from the primers and the genome

**Q.** Which results are given for “GACCGGCGAGATGTCTGGAAGTTCGTCGATCGCATTCTGACCGGCACTGTGACCGTTGCTGGCCATTCCATCCTCCCGCTCGGAGTTTCGGCGACGCGGCAAACATATCCTCGCCTATGCGCGGATGCCTATCGCTTTCGCGCAATTCCTGTCCGGATTGCGCAAAGATAGGTGCTCTCATGCGCGTCTGACGATCAGGAGGGTTGCGGTGCGGGACCGAAATCCGTTATCGCTGACCAAAGTTAGGCTTTCCTTAGCTCGCGTATCAGGCCGGGCGTTGCTGGGGGTTCCCGGATGTCACGGCTGACCCGGCTCGGGTTCATCGACATCCGCCGCACCAGCGATCCCGTGCGGCGAAAGGTGCGCAGCCGCGGCGTCCCGCCCGCGCTGGCCGATCACGAGATCTTCTACACCGAGGACGTCCGCGAGGCCGCGCGTCTGGTCG (double strand) [Phuc (huc promoter)]”?
**A.** binding result (50 mM cAMP): no binding; binding result (no cAMP): no binding
